Measured values from several laboratories, pooled; numbers as filed in NIAID ChemDB.

Common to all: cytotoxicity tests; cell line: MT-2; read-out: CC50

CCn: concentration that lowers growth or viability of the cells by n%. Lines come from different laboratories, so protocols vary. Blank or dashed fields: not listed here.

| SMILES | method | value |
|---|---|---|
| O=C(/C=C/c1ccc(O)c(O)c1)NCCC(NC(=O)/C=C/c1ccc(O)c(O)c1)C(=O)O | neutral red | >39 µM |
| N#C/C=C/c1cc(F)cc(Oc2cc(Nc3nccc(C4CC4)n3)ccc2C#N)c1 | - | 0.26 µM |
| COc1ccc(Cc2nn(-c3ccccc3)c(=O)c3ccccc23)cc1 | propidium iodide | 210 µM |
| O=C(C(=O)N1CCN(C(=O)c2ccccc2O)CC1)c1c[nH]c2ccccc12 | XTT | >10 µM |
| Clc1ccc(Cc2nnc(Cc3c(Cl)cccc3Cl)o2)cc1 | MTT | 43 µM |
| COc1ccc2c(c1)[C@@H](N1CCCC1=O)C[C@@H](c1cccc(N)c1)N2 | ATP | 63.36 µM |
| O=C(NCCCC(NC(=O)c1cc(O)c(O)c(O)c1)C(=O)O)c1cc(O)c(O)c(O)c1 | neutral red | >29 µM |
| Cc1ccc(-c2c(C(OC(C)(C)C)C(=O)O)c(C)nc3sc4c(c23)CCOC4)cc1 | - | >20 µM |
| COc1ccc2c(C(=O)C(=O)N3CCN(C(=O)c4ccccc4)CC3)c[nH]c2c1 | XTT | >10 µM |
| O=C(/C=C/c1cc(O)c(O)c(O)c1)NCCCC(NC(=O)/C=C/c1cc(O)c(O)c(O)c1)C(=O)O | neutral red | >37 µM |
| CN(C(=O)[C@H](Cc1cc(F)cc(F)c1)NC(=O)CN1c2ccccc2N(CC(=O)N[C@@H](Cc2cc(F)cc(F)c2)C(=O)N(C)c2ccc3c(c2)ncn3C)S1(=O)=O)c1ccc2c(c1)ncn2C | XTT | 100 µM |
| Cc1ccc2c(c1)[C@@H](N1CCCC1=O)C[C@@H](c1cccc([N+](=O)[O-])c1)N2 | ATP | 53.47 µM |
| CN(C(=O)[C@H](Cc1ccccc1)NC(=O)Cc1cccc(CCO)c1)c1ccc2c(c1)OCO2 | ATP | >20 µM |
| COC(=O)[C@H](CCCCNC(=O)/C=C/c1ccc(O)c(O)c1)NC(=O)/C=C/c1ccc(O)c(O)c1 | neutral red | >15 µM |
| COc1nc(Nc2ccc(C#N)c(Oc3cccc(/C=C/C#N)c3)c2)nc(OC)n1 | - | 6.3 µM |
| O=C(C(=O)N1CCN(C(=O)c2cccc(F)c2)CC1)c1c[nH]c2ccccc12 | XTT | >10 µM |
| Cc1c(CCO)c(C(C)C)nn1CC(=O)N[C@@H](Cc1ccccc1)C(=O)N(C)c1ccc2c(c1)OCO2 | ATP | >20 µM |
| CCOC(C(=O)O)c1c(C)nc2sc3c(c2c1-c1ccc2cn[nH]c2c1)CCCC3 | - | >20 µM |
| O=C(C(=O)N1CCN(C(=O)c2ccccc2)CC1)c1c[nH]c2ccccc12 | XTT | >10 µM |
| COC(=O)C(CCCNC(=O)/C=C/c1cc(O)c(O)c(O)c1)NC(=O)/C=C/c1cc(O)c(O)c(O)c1 | neutral red | >42 µM |
| Cc1cc(C)c2c(c1)N[C@H](c1cccc([N+](=O)[O-])c1)C[C@@H]2N1CCCC1=O | MTT | >50 µM |
| CN(c1ccc(C#N)cc1)c1nnc(Cc2c(Cl)cccc2Cl)o1 | MTT | 67 µM |
| Cc1cc(C)c2ccc(-c3cccc([N+](=O)[O-])c3)nc2c1 | MTT | >50 µM |
| C=Cc1ccnc(CC(=O)N[C@@H](Cc2ccccc2)C(=O)N(C)c2ccc3c(c2)OCO3)c1 | ATP | >20 µM |
| CCc1ccc(Nc2ncc(Cc3c(Cl)cccc3Cl)o2)cc1 | MTT | >100 µM |
| O=C(NC(CNC(=O)c1ccc(O)c(O)c1O)C(=O)O)c1cc(O)c(O)c(O)c1 | neutral red | >32 µM |
| CC(=O)Oc1ccc(C(=O)N2CCN(C(=O)C(=O)c3c[nH]c4ccccc34)CC2)cc1 | XTT | >10 µM |
| Cc1ccc2c(c1)C(O)(Cc1ccccc1Cl)N1CCN=C21 | propidium iodide | 52.4 µM |
| O=C(C(=O)N1CCN(C(=O)c2ccccc2)CC1)c1c[nH]c2ccc(Br)cc12 | XTT | >10 µM |
| Cc1c(CC(=O)N[C@@H](Cc2ccccc2)C(=O)N(C)c2ccc3c(c2)OCO3)c(C2CC2)nn1CCO | ATP | >20 µM |
| O=C(/C=C/c1ccc(O)c(O)c1)NCC(NC(=O)/C=C/c1ccc(O)c(O)c1)C(=O)O | neutral red | >30 µM |
| CCOC(C(=O)O)c1c(C)nc2sc3c(c2c1-c1cnn(CC)c1)CCCC3 | - | >20 µM |
| CC(C)c1ccnc(Nc2ccc(C#N)c(Oc3cccc(/C=C/C#N)c3)c2)n1 | - | 4.1 µM |
| Cc1ccc(C(=O)N2CCN(C(=O)C(=O)c3c[nH]c4ccccc34)CC2)cc1 | XTT | >10 µM |
| COc1ccc(-n2ccnc2[C@H](Cc2ccccc2)NC(=O)CN2c3ccccc3N(CC(=O)N[C@@H](Cc3ccccc3)c3nccn3-c3ccc(OC)cc3)S2(=O)=O)cc1 | XTT | 100 µM |
| CCn1cc(-c2c(C(OC(C)(C)C)C(=O)O)c(C)nc3sc4c(c23)CCCC4)cn1 | - | >20 µM |
| O=c1[nH]nc(Cc2ccc(Cl)c(Cl)c2)c2ccccc12 | propidium iodide | >164 µM |
| Cc1ccc(-c2c([C@@H](OC(C)(C)C)C(=O)O)c(C)nc3sc4c(c23)CCCC4)c(O)c1 | - | >20 µM |
| CCc1ncc(N(C)C(=O)[C@H](Cc2cc(F)cc(F)c2)NC(=O)c2ccc(F)c(C(=O)N[C@@H](Cc3cc(F)cc(F)c3)C(=O)N(C)c3cnc(CC)nc3)c2)cn1 | XTT | 33.3 µM |
| CCCCn1nc(Cc2ccc(SC)cc2)c2ccccc2c1=O | propidium iodide | 71.1 µM |
| COc1ccc(N(C)C(=O)[C@H](Cc2ccccc2)NC(=O)CC2(CC(=O)N[C@@H](Cc3ccccc3)C(=O)N(C)c3ccc(OC)cc3)CCCC2)cc1 | XTT | 50 µM |
| Clc1cccc(Cl)c1Cc1nnc(Nc2ccc(COCc3ccco3)cc2)o1 | MTT | 9 µM |
| Cc1ccc2c(=O)[nH]nc(Cc3ccc(Cl)c(Cl)c3)c2c1 | propidium iodide | 64.7 µM |
| Cc1ccc(S(=O)(=O)NC(=O)Cc2c(C)nn(CC(=O)N[C@@H](Cc3ccccc3)C(=O)N(C)c3ccc4c(c3)OCO4)c2C(C)C)cc1 | ATP | >20 µM |
| O=C(NCCCC(NC(=O)c1ccc(O)c(O)c1)C(=O)O)c1ccc(O)c(O)c1 | neutral red | >17 µM |
| CSc1ccnc(Nc2ccc(C#N)c(Oc3cccc(/C=C/C#N)c3)c2)n1 | - | 1.2 µM |
| CC(c1nnc(Nc2ccc(C#N)cc2)o1)c1c(F)cccc1F | MTT | 5.2 µM |
| N#Cc1ccc2c(Oc3ccc(F)cc3OCCn3ccc(=O)[nH]c3=O)cc(F)cc2c1 | MTT | >100 µM |
| Clc1ccc(Nc2nnc(Cc3c(Cl)cccc3Cl)s2)cc1 | MTT | >100 µM |
| COc1cc2c(c(OC)c1)[C@@H](N1CCCC1=O)C[C@@H](c1cccc(N)c1)N2 | MTT | >50 µM |
| Cc1c(CCO)c(C2CC2)nn1C(C)(C)C(=O)N[C@@H](Cc1ccccc1)C(=O)N(C)c1ccc2c(c1)OCO2 | ATP | >20 µM |
| COc1ccc2c(c1)[C@@H](N1CCCC1=O)C[C@@H](c1cccc([N+](=O)[O-])c1)N2 | ATP | 47.33 µM |
| COc1ccc(N(C)C(=O)[C@H](Cc2ccccc2)NC(=O)c2cc(C(=O)N[C@@H](Cc3ccccc3)C(=O)N(C)c3ccc(OC)cc3)n(C)n2)cc1 | XTT | 100 µM |
| COc1ccc(/C=C2\OC(=O)c3ccccc32)cc1 | propidium iodide | >50 µM |
| COc1ccc(N(C)C(=O)[C@H](Cc2ccccc2)NC(=O)COc2nc3ccccc3n(CC(=O)N[C@@H](Cc3ccccc3)C(=O)N(C)c3ccc(OC)cc3)c2=O)cc1 | XTT | 50 µM |
| CN(c1nnc(Nc2ccc(C#N)cc2)o1)c1c(Cl)cccc1Cl | MTT | >100 µM |
| COc1ccc(N(C)C(=O)[C@H](Cc2cc(F)cc(F)c2)NC(=O)Cn2c(=O)c3ccccc3n(CC(=O)N[C@@H](Cc3cc(F)cc(F)c3)C(=O)N(C)c3ccc(OC)cc3)c2=O)cc1 | XTT | 100 µM |
| Cc1nn(CC(=O)N[C@@H](Cc2ccccc2)C(=O)N(C)c2ccc3c(c2)OCO3)c(C(C)C)c1CCO | ATP | >20 µM |

For reference, 4 entries again:

CN(c1nnc(Nc2ccc(C#N)cc2)o1)c1c(Cl)cccc1Cl ; method: MTT ; value: >100 µM
Cc1cc(C)c2ccc(-c3cccc([N+](=O)[O-])c3)nc2c1 ; method: MTT ; value: >50 µM
O=C(NC(CNC(=O)c1ccc(O)c(O)c1O)C(=O)O)c1cc(O)c(O)c(O)c1 ; method: neutral red ; value: >32 µM
Cc1c(CCO)c(C(C)C)nn1CC(=O)N[C@@H](Cc1ccccc1)C(=O)N(C)c1ccc2c(c1)OCO2 ; method: ATP ; value: >20 µM